Pooled drug test results. Numbers come from NIAID ChemDB, via PubChem.

All rows: tests in culture; species: Candida albicans

Zones are inhibition diameters on agar. Percent inhibition refers to the dose given; in toxicity tests it is the harm to the cells. Rows are shuffled and stem from different studies. An empty or dashed field is not shown. MIC50, MIC90 and the like: level of inhibition, or share of isolates inhibited.

CN1CCC2=C(CCCC2CCc2ccccc2Cl)C1 ; strain or isolate: C316 ; measure: MIC ; value: 16 µg/mL
Clc1ccc(COC(Cn2ccnc2)c2ccc(Cl)cc2Cl)cc1 ; strain or isolate: 75 strains ; measure: inhibition ; read by: agar diffusion / agar ; dose: 10 µg/mL ; value: 35%
C(/C=C/c1ccccc1)=NCCNCCN=C/C=C/c1ccccc1.N#C[S][Hg][S]C#N ; measure: zone ; read by: agar diffusion ; dose: 20000 µg/mL ; value: 26 mm
C[C@H](Cc1ccc(O)c(O)c1)[C@@H](C)Cc1ccc(O)c(O)c1 ; strain or isolate: CCC 129-2000 ; measure: MIC50 ; read by: broth dilution ; value: 125 µg/mL
OC(Cn1cncn1)(Cn1cncn1)c1ccc(F)cc1F ; strain or isolate: 75 strains ; measure: inhibition ; read by: agar diffusion / agar ; dose: 15 µg/mL ; value: 65%
CCO[C@@H]1C[C@@H]([C@H](C)[C@H]2CC[C@]3(C)C4=C(CC[C@@]23C)[C@]2(C)CC[C@H](O)C(C)(C)[C@H]2CC4)CC[C@@H]1C ; strain or isolate: MTCC 183 ; measure: zone ; read by: agar diffusion / agar ; dose: 10 µg/disc ; value: 25 mm
Clc1ccc(C(Cn2ccnc2)OCc2ccsc2Cl)c(Cl)c1 ; strain or isolate: 75 strains ; measure: inhibition ; read by: agar diffusion / agar ; dose: 10 µg/mL ; value: 65%
Clc1ccc(CCC2CCCc3cnccc32)cc1 ; strain or isolate: C316 ; measure: MIC ; value: 8 µg/mL
C[C@@H]([C@H]1CC[C@H](C)C(=O)C1)[C@H]1CC[C@]2(C)C3=C(CC[C@@]12C)[C@]1(C)CC[C@H](O)C(C)(C)[C@H]1CC3 ; strain or isolate: MTCC 183 ; measure: zone ; read by: agar diffusion / agar ; dose: 2 µg/disc ; value: 19 mm
Cc1cc(C2CCCCC2)n(O)c(=O)c1 ; strain or isolate: 75 strains ; measure: inhibition ; read by: agar diffusion / agar ; dose: 10 µg/mL ; value: 75%
Cc1cnccc1CCCc1ccccc1 ; strain or isolate: 2381E ; measure: MIC ; value: 16 µg/mL
C[C@@H](c1nc(-c2ccc(C#N)cc2)cs1)[C@](O)(Cn1cnnc1)c1ccc(F)cc1F ; strain or isolate: Isogenic isolate 12 (25X) ; measure: MIC ; value: ≤0.008 µg/mL
COc1cccc(CCC2CCCC3=C2CCN(C)C3)c1 ; strain or isolate: C316 ; measure: MIC ; value: 62 µg/mL
CC(C)[C@H](NC(=O)[C@H](Cc1ccccc1)NC(=O)[C@@H](N)CCCCN)C(N)=O ; measure: inhibition ; read by: colony count ; dose: 100 µM ; value: 2.7%
CN1CCC2=C(CCCC2CCc2cccc(Cl)c2)C1 ; strain or isolate: 1208E ; measure: MIC ; value: 31 µg/mL
CC(C)[C@H](NC(=O)[C@H](Cc1ccccc1)NC(=O)[C@H](CCCCN)NC(=O)CNC(=O)[C@@H](N)Cc1c[nH]c2ccccc12)C(N)=O ; measure: inhibition ; read by: colony count ; dose: 100 µM ; value: 5.7%
OC(Cn1cncn1)(Cn1cncn1)c1ccc(F)cc1F ; strain or isolate: YL 358 ; measure: MIC ; read by: broth dilution ; value: >512 µg/mL
Cc1cnccc1CCCc1ccc(Br)cc1 ; strain or isolate: C316 ; measure: MIC ; value: 31 µg/mL

Again, the opening 2 rows:

| smiles | strain or isolate | measure | read by | dose | value |
|---|---|---|---|---|---|
| CN1CCC2=C(CCCC2CCc2ccccc2Cl)C1 | C316 | MIC | - | - | 16 µg/mL |
| Clc1ccc(COC(Cn2ccnc2)c2ccc(Cl)cc2Cl)cc1 | 75 strains | inhibition | agar diffusion / agar | 10 µg/mL | 35% |